Test results published in paper PMC5007486, “Thermodynamic instability of viral proteins is a pathogen-associated molecular pattern targeted by human defensins” (Scientific Reports, 2016).

Test system: HIV-1 Gag-Δp6

For “HNP-1: human neutrophil α-defensin peptide HNP-1, prepared by solid-phase peptide synthesis”, the “Temperature of destabilization of Gag-Δp6” value was “occurred at the lowest tested temperature”.
